Sequence variants of PSTVd loop 15 after infection

The measurements come from Wu et al. 2024 (doi:10.1371/journal.ppat.1012142).

The pool varies loop 15 of the PSTVd intermediate strain in the pattern GGAAACCGNNNNNNC; wild type is GGAAACCGCUACUAC (upper and lower strand joined, each 5' to 3', the first 7 letters being the upper strand, closing pairs included).

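Three N. benthamiana plants were inoculated with the whole mutant pool. Samples came from the inoculated region at 5 days, the leaf margin at 10 and upper systemic leaves at 12.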

Numbers give reads per thousand; 0 = not seen among the reads, higher = more abundant.
Each site shows the three plants.
"Pool" is the share in the plasmid pool used as inoculum, on the same scale.
The inoculated region was read from the minus strand, the other sites from the plus strand.
Samples held 43,870 to 66,106 reads, so the smallest values rest on one or two reads.
Sequences that differ at fixed positions probably stem from PCR or sequencing errors, and defective variants can be carried along by functional ones.
For reference, wild type rose from 33.9 per thousand in the pool to 202, 200, 159 (inoculated region), 724, 746, 710 (leaf margin) and 856, 883, 880 (systemic leaves).

| sequence | pool | inoculated region | leaf margin | systemic leaves |
|---|---|---|---|---|
| GGAAACCGUCCGGCC | 0.192 | 0.0491 0.0482 0.152 | 0 0 0 | 0 0 0 |
| GGAAACCGUCCGGGC | 0.240 | 0.295 0.450 0.228 | 0.0162 0 0 | 0 0 0 |
| GGAAACCGUCCGGUC | 0.272 | 0.442 0.626 0.514 | 0.162 0.0223 0.120 | 0.0322 0 0 |
| GGAAACCGUCCGUAC | 0.224 | 0.311 0.337 0.438 | 0.178 0.134 0.120 | 0.0483 0.0756 0.0456 |
| GGAAACCGUCCGUCC | 0.192 | 0.278 0.386 0.419 | 0.0485 0.156 0.0801 | 0.0644 0.0454 0.0684 |
| GGAAACCGUCCGUGC | 0.192 | 0.328 0.353 0.343 | 0.113 0.0668 0.100 | 0 0.0454 0.114 |
| GGAAACCGUCCGUUC | 0.176 | 0.197 0.289 0.457 | 0.129 0.0891 0.0801 | 0.0644 0.0605 0.160 |
| GGAAACCGUCCUAAC | 0.256 | 0.147 0.145 0.152 | 0 0 0 | 0 0 0 |
| GGAAACCGUCCUACC | 0.176 | 0.0819 0.0964 0.152 | 0.0323 0 0 | 0 0 0 |
| GGAAACCGUCCUAGC | 0.256 | 0.197 0.257 0.190 | 0.0323 0 0.0200 | 0 0 0 |
| GGAAACCGUCCUAUC | 0.336 | 0.0491 0.0643 0.209 | 0 0.0223 0 | 0 0 0 |
| GGAAACCGUCCUCAC | 0.192 | 0.0328 0.0803 0.114 | 0 0 0.0401 | 0 0 0 |
| GGAAACCGUCCUCCC | 0.240 | 0.115 0.209 0.0381 | 0 0.0445 0 | 0.0322 0 0 |
| GGAAACCGUCCUCGC | 0.256 | 0.0819 0.0964 0.133 | 0 0 0 | 0.0322 0 0 |
| GGAAACCGUCCUCUC | 0.176 | 0.115 0.112 0.0762 | 0 0 0.0801 | 0 0 0 |
| GGAAACCGUCCUGAC | 0.256 | 0.0819 0.0321 0.0952 | 0.0323 0 0.0401 | 0 0 0 |
| GGAAACCGUCCUGCC | 0.224 | 0.0164 0.0964 0.0762 | 0 0 0.0401 | 0 0 0 |
| GGAAACCGUCCUGGC | 0.160 | 0.229 0.337 0.343 | 0.0162 0 0.0200 | 0.0161 0 0 |
| GGAAACCGUCCUGUC | 0.272 | 0.115 0.0964 0.0762 | 0.0162 0 0.0200 | 0 0 0 |
| GGAAACCGUCCUUAC | 0.336 | 0.524 0.386 0.343 | 0.162 0.0891 0.0601 | 0.0483 0.0454 0.0684 |
| GGAAACCGUCCUUCC | 0.224 | 0.164 0.0964 0.171 | 0.0323 0 0 | 0 0 0 |
| GGAAACCGUCCUUGC | 0.208 | 0.0983 0.0964 0.171 | 0 0.0223 0.0200 | 0 0 0 |
| GGAAACCGUCCUUUC | 0.192 | 0.475 0.498 0.324 | 0.0647 0.0223 0.0401 | 0.0644 0 0 |
| GGAAACCGUCGAAAC | 0.240 | 0.147 0.0803 0.0190 | 0.0162 0 0 | 0 0 0 |
| GGAAACCGUCGAACC | 0.176 | 0.0491 0.0964 0.0381 | 0 0 0 | 0 0 0 |
| GGAAACCGUCGAAGC | 0.112 | 0.0819 0.0321 0.133 | 0.0162 0 0.0200 | 0.0161 0 0 |
| GGAAACCGUCGAAUC | 0.288 | 0.0819 0.0964 0.0762 | 0.0162 0 0.0200 | 0 0 0 |
| GGAAACCGUCGACAC | 0.112 | 0.131 0.129 0.0571 | 0.0162 0 0 | 0 0 0 |
| GGAAACCGUCGACCC | 0.240 | 0.147 0.177 0.152 | 0 0 0.0200 | 0 0 0 |
| GGAAACCGUCGACGC | 0.208 | 0.147 0.0643 0.133 | 0 0 0.0200 | 0 0 0 |
| GGAAACCGUCGACUC | 0.240 | 0.0983 0.0803 0.0762 | 0 0.0223 0.0200 | 0.0322 0 0 |
| GGAAACCGUCGAGAC | 0.256 | 0.0819 0.0643 0.0952 | 0 0.0445 0.0200 | 0 0 0 |
| GGAAACCGUCGAGCC | 0.208 | 0.0983 0.0643 0.114 | 0 0 0.0200 | 0.0161 0 0 |
| GGAAACCGUCGAGGC | 0.256 | 0.131 0.0161 0.152 | 0 0 0 | 0 0 0 |
| GGAAACCGUCGAGUC | 0.224 | 0.0983 0.0803 0.0762 | 0.0323 0 0 | 0 0 0 |
| GGAAACCGUCGAUAC | 0.144 | 0.131 0.193 0.400 | 0.113 0.111 0.160 | 0.0805 0.0303 0.0684 |
| GGAAACCGUCGAUCC | 0.176 | 0.0655 0.0803 0.133 | 0.0162 0 0.0200 | 0 0 0 |
| GGAAACCGUCGAUGC | 0.256 | 0.164 0.0803 0.209 | 0 0 0 | 0 0 0 |
| GGAAACCGUCGAUUC | 0.160 | 0.295 0.177 0.324 | 0.113 0.134 0.100 | 0.0483 0 0 |
| GGAAACCGUCGCAAC | 0.176 | 0.0328 0.0643 0.0571 | 0.0162 0.0223 0.0200 | 0 0 0 |

5 of these entries, quoted again:

sequence	pool	inoculated region	leaf margin	systemic leaves
GGAAACCGUCCGUCC	0.192	0.278 0.386 0.419	0.0485 0.156 0.0801	0.0644 0.0454 0.0684
GGAAACCGUCGAUUC	0.160	0.295 0.177 0.324	0.113 0.134 0.100	0.0483 0 0
GGAAACCGUCCUAGC	0.256	0.197 0.257 0.190	0.0323 0 0.0200	0 0 0
GGAAACCGUCCUUCC	0.224	0.164 0.0964 0.171	0.0323 0 0	0 0 0
GGAAACCGUCCGUAC	0.224	0.311 0.337 0.438	0.178 0.134 0.120	0.0483 0.0756 0.0456